Pooled drug test results. Numbers come from NIAID ChemDB, via PubChem.

Common to all: growth or infection tests; agent: Hepatitis C virus; measure: EC50

Rows are shuffled and stem from different studies. Blank or dashed fields: not listed here. Two numbers with a dash give a range or band. ECn: concentration that inhibits the pathogen or its effect by n%.

SMILES,strain,changes,cell line,read by,result
COc1ccc(Cl)cc1Nc1ncnc2c1cnn2-c1cccc(Cl)c1,-,-,HUH 9B,replicon,<1 µM
CNC(=O)c1c(-c2ccc(F)cc2)oc2cc(-c3ncon3)c(OC(C)C)cc12,-,-,Huh7,replicon,<1 µM
CCOc1nc(NCc2ccon2)nc2ccc(-c3ccc(F)cc3)nc12,-,-,-,replicon,<0.1 µM
CC1CCC(C(=O)N(c2cc(-c3ccc(NC(=O)c4cccc(F)c4)cc3)sc2C(=O)O)C(C)C)CC1,1a,-,-,replicon,<0.5 µM
Nc1ncnc2c1c(I)cn2[C@@H]1O[C@H](CO)[C@@H](O)[C@H]1F,1b,-,HCV replicon,replicon,1.02 µM
CC(C)(CCOc1ccccc1)CCOc1cccc(NC(N)=S)c1,-,-,Ava5-EG(delta4AB)SEAP,reporter gene / fluorescence,0.001–1 µM
C#Cc1cn([C@@H]2O[C@H](CO)[C@@H](O)C2(F)F)c2ncnc(N)c12,2a,-,HCV replicon,replicon,3.29 µM
CC1CCC(C(=O)N(c2cc(-c3ccc(NC(=O)c4ccccc4F)cc3)sc2C(=O)O)C(C)C)CC1,1a,-,-,replicon,<0.5 µM
CNC(=O)c1c(-c2ccc(F)cc2)oc2cc(N3CCOCC3)c(OC(C)C)cc12,-,-,Huh7,replicon,<1 µM
CCOc1nc(NCc2cc(F)c(F)c(F)c2)nc2ccc(-c3ccc(F)cc3)nc12,-,-,-,replicon,<0.1 µM
N#Cc1cccc(OCCCCCOc2cccc(NC(N)=S)c2)c1,-,-,Ava5-EG(delta4AB)SEAP,reporter gene / fluorescence,0.001–1 µM
CNC(=O)c1c(-c2ccc(F)cc2)oc2cc(CN3CCOCC3)c(OC(C)C)cc12,-,-,Huh7,replicon,<10 µM
O=C(N[C@@H](C(=O)N1CCC[C@H]1c1ncc(-c2ccc(-c3ccc(-c4cnc([C@@H]5CCCN5C(=O)[C@H](NC(=O)C5CC5)c5ccccc5)s4)cc3)cc2)s1)c1ccccc1)C1CC1,genotype 1b,Y93C,Huh7.5,luciferase / reporter gene,0.000078 µM
CCOc1ccc(Nc2ncnc3c2cnn3-c2ccccc2Cl)cc1,-,-,HUH 9B,replicon,>10 µM
NC(=S)Nc1cccc(OCCCCCOc2cccc3cccnc23)c1,-,-,Ava5-EG(delta4AB)SEAP,reporter gene / fluorescence,0.001–1 µM
CC1CCC(C(=O)N(CC2CC2)c2cc(-c3ccc(NC(=O)c4cccnn4)cc3)sc2C(=O)O)CC1,1a,-,-,replicon,<0.5 µM
NS(=O)(=O)c1ccc(CNc2nc(NCC(F)(F)F)c3nc(-c4ccc(=O)[nH]c4)ccc3n2)cc1,-,-,-,replicon,<0.1 µM
Cc1ccc(-n2ncc3c(NC(=O)Nc4ccc(S(N)(=O)=O)cc4)ncnc32)c(C)c1,-,-,HUH 9B,replicon,<1 µM
CCOc1nc(NCc2ccc(S(N)(=O)=O)cc2)nc2ccc(-c3ccc(NC(=O)NC4CC4)cc3)nc12,-,-,-,replicon,<0.1 µM
Cc1ccc(-n2ncc3c(Nc4ccc(F)c(Cl)c4)ncnc32)c(C)c1,-,-,HUH 9B,replicon,<1 µM
CNC(=O)c1c(-c2ccc(F)cc2)oc2ccc(OC(C)C)cc12,-,-,Huh7,replicon,<30 µM
Cc1ccc(-n2ncc3c(Nc4cccc(F)c4)ncnc32)c(C)c1,-,-,HUH 9B,replicon,1–10 µM
CC1CCC(C(=O)N(c2cc(-c3ccc(NC(=O)c4cscn4)cc3)sc2C(=O)[O-])C(C)C)CC1.NC(N)=[NH+]CCCC(N)C=O,1b,-,-,replicon,<0.5 µM
NC(=S)Nc1cccc(OCCCc2ccccc2)c1,-,-,Ava5-EG(delta4AB)SEAP,reporter gene / fluorescence,0.001–1 µM
CNC(=O)c1c(-c2ccc(F)cc2)oc2cc(N(CCO)S(C)(=O)=O)c(C3CC3)cc12,JFH1 Genotype 2a,-,Huh7.5,luciferase,0.0926 µM
S=C(Nc1ccccc1)Nc1ccc2c(c1)Cc1cc(Br)ccc1-2,-,-,Ava5-EG(delta4AB)SEAP,reporter gene / fluorescence,0.001–1 µM
CNC(=O)c1c(-c2ccc(F)cc2)oc2cc(-c3c(C)noc3C)c(OCCCO)cc12,-,-,Huh7,replicon,<1 µM
CCCCn1c(=O)c2cc(OC)ccc2c2cc(C(O)(C(F)(F)F)C(F)(F)F)c(OC)cc21,2a,-,Huh7.5.1,PCR,2.6 µM
Nc1ncnc2c1c(-c1ccoc1)cn2[C@@H]1O[C@H](CO)[C@@H](O)C1(F)F,1a,-,HCV replicon,replicon,16.51 µM
C[C@H](N)C(=O)Nc1ccc(-c2ccc3nc(NCc4ccc(S(N)(=O)=O)cc4)nc(NCC(F)(F)F)c3n2)cc1F,-,-,-,replicon,<0.1 µM
CC1(C)CC(=O)C2=C(C1)Nc1c(O)cccc1N(C(=O)c1cscn1)[C@@H]2c1ccc(OCc2ccccc2)cc1F,1b,-,-,luciferase / reporter gene / replicon,10.95 µM
Nc1ncnc2c1c(I)cn2[C@@H]1O[C@H](CO)[C@@H](O)C1(F)F,2a,-,HCV replicon,replicon,1.12 µM
CC1(C)CC(=O)C2=C(C1)Nc1c(O)cccc1N[C@@H]2c1ccc(OCc2ccccc2)cc1F,1b,-,-,luciferase / reporter gene / replicon,1.09 µM
CNC(=O)c1c(-c2ccc(F)cc2)oc2cc(-c3ccnn3C)c(OC(C)C)cc12,-,-,Huh7,replicon,<1 µM
CC(=O)N1c2cccc(O)c2NC2=C(C(=O)CC(C)(C)C2)[C@@H]1c1ccc(OCc2ccccc2)c(Cl)c1,1b,-,-,luciferase / reporter gene / replicon,0.9 µM
CN1CCN(c2ccc(OCCCCCOc3cccc(NC(N)=S)c3)cc2)CC1,-,-,Ava5-EG(delta4AB)SEAP,reporter gene / fluorescence,0.001–1 µM
Nc1ncnc2c1c(-c1cccs1)cn2[C@@H]1O[C@H](CO)[C@@H](O)C1(F)F,2a,-,HCV replicon,replicon,4.82 µM
CCCCCNC(=S)Nc1ccc2c(c1)Cc1cc(Br)ccc1-2,-,-,Ava5-EG(delta4AB)SEAP,reporter gene / fluorescence,0.001–1 µM
CNC(=O)c1c(-c2ccc(F)cc2)oc2cc(-c3ccncc3)c(OC(C)C)cc12,-,-,Huh7,replicon,<10 µM
NC(=S)Nc1ccc2c(c1)C(=O)c1cc(Br)ccc1-2,-,-,Ava5-EG(delta4AB)SEAP,reporter gene / fluorescence,0.001–1 µM
Nc1ncnc2c1c(-c1ccsc1)cn2[C@@H]1O[C@H](CO)[C@@H](O)[C@H]1F,2a,-,HCV replicon,replicon,13.21 µM
CC1(C)CC(=O)C2=C(C1)Nc1c(O)cccc1N(C(=O)CC#N)C2c1ccc(Oc2ccccc2Br)cc1Cl,1b,-,-,luciferase / reporter gene / replicon,13.54 µM
CCOc1nc(NCc2ccc(F)cc2)nc2ccc(-c3ccc(NC(=O)[C@H]4CCNC4)c(F)c3)nc12,-,-,-,replicon,<0.1 µM
COC(=O)N[C@H](C(=O)N1CCC[C@H]1c1ncc(-c2ccc(-c3ccc(-c4cnc([C@@H]5CCCN5C(=O)[C@@H](NC(=O)OC)C(C)C)[nH]4)cc3)cc2)[nH]1)C(C)C,1a,L31M,Lunet,luciferase,0.0036 µM
CC1CCC(C(=O)N(CC2CC2)c2cc(-c3ccc(NC(=O)c4ccn[nH]4)cc3)sc2C(=O)O)CC1,1a,-,-,replicon,<0.5 µM
CCOc1nc(NCc2ccc(F)cc2)nc2ccc(-c3ccc(NC(=O)C(C)(C)N)cc3)nc12,-,-,-,replicon,<0.1 µM
Nc1ncnc2c1c(-c1ccccc1)cn2[C@@H]1O[C@H](CO)[C@@H](O)C1(F)F,2a,-,HCV replicon,replicon,8.58 µM
Cc1ccc(-n2ncc3c(Nc4ccc(N5CCOCC5)c(F)c4)ncnc32)c(C)c1,-,-,HUH 9B,replicon,<1 µM
NS(=O)(=O)c1cccc(CNc2nc(NCC(F)(F)F)c3nc(-c4ccc(F)cc4)ccc3n2)c1,-,-,-,replicon,<0.1 µM
Cc1ccc(-n2ncc3c(NC(=O)Nc4ccc(Cl)cc4)ncnc32)c(C)c1,-,-,HUH 9B,replicon,<1 µM
NC(=S)Nc1cccc(OCCCCCOc2ccc(C(F)(F)F)cc2)c1,-,-,Ava5-EG(delta4AB)SEAP,reporter gene / fluorescence,0.001–1 µM
CC1CCC(C(=O)N(c2cc(-c3ccc(NC(=O)c4cscn4)c(Cl)c3)sc2C(=O)O)C(C)C)CC1,1a,-,-,replicon,<0.5 µM
NS(=O)(=O)c1ccc(CCNc2ncnc3c2cnn3-c2ccccc2Cl)cc1,-,-,HUH 9B,replicon,<1 µM

6 of the rows above, restated:

{"SMILES": "CC1CCC(C(=O)N(CC2CC2)c2cc(-c3ccc(NC(=O)c4ccn[nH]4)cc3)sc2C(=O)O)CC1", "strain": "1a", "read by": "replicon", "result": "<0.5 µM"}
{"SMILES": "Cc1ccc(-n2ncc3c(Nc4ccc(N5CCOCC5)c(F)c4)ncnc32)c(C)c1", "cell line": "HUH 9B", "read by": "replicon", "result": "<1 µM"}
{"SMILES": "NC(=S)Nc1cccc(OCCCCCOc2cccc3cccnc23)c1", "cell line": "Ava5-EG(delta4AB)SEAP", "read by": "reporter gene / fluorescence", "result": "0.001–1 µM"}
{"SMILES": "S=C(Nc1ccccc1)Nc1ccc2c(c1)Cc1cc(Br)ccc1-2", "cell line": "Ava5-EG(delta4AB)SEAP", "read by": "reporter gene / fluorescence", "result": "0.001–1 µM"}
{"SMILES": "CNC(=O)c1c(-c2ccc(F)cc2)oc2cc(-c3ncon3)c(OC(C)C)cc12", "cell line": "Huh7", "read by": "replicon", "result": "<1 µM"}
{"SMILES": "COC(=O)N[C@H](C(=O)N1CCC[C@H]1c1ncc(-c2ccc(-c3ccc(-c4cnc([C@@H]5CCCN5C(=O)[C@@H](NC(=O)OC)C(C)C)[nH]4)cc3)cc2)[nH]1)C(C)C", "strain": "1a", "changes": "L31M", "cell line": "Lunet", "read by": "luciferase", "result": "0.0036 µM"}